This data set concerns HCV replicon, Huh7 (NS3-5B) cells. Description: cell-based HCV replicon assay (luciferase). The settings on record: dose-response curve in HCV replicon system (Figure 3). On the set-up: species or system Hepatitis C virus genotype 1b. As to the method:
Huh7 (NS3-5B) cells correspond to a stable cell line transfected with HCV NS3-5B genotype 1b. The cells were seeded (1 × 10^4 cells per well) in Dulbecco’s Modified Eagle Medium (DMEM) supplemented with 10% fetal bovine serum, 2 mM glutamine, penicillin (100 IU/mL)/streptomycin (100 μg/mL), 1× nonessential amino acids and 0.5 mg/mL G418 in 96-well plates overnight. Compounds were diluted and added to each well. Each concentration was measured in duplicate. After 48 h of incubation, 100 μL of Steady-Glo Luciferase buffer (E2550, Promega, Beijing, China) was added to each well and shaken for 10 min, and the results were read on plate reader (ENVISION, PerkinElmer, Shanghai, China). The IC50 values were calculated by fitting with the parameter of the Hill equation.

Each structure is given as a SMILES string.

In turn, `COc1cccc(/C=N/NC(=O)c2cc3ccccc3nc2C)c1O` [Compound 5] displayed a Hill slope of 1.30.

In the case of `C=CCc1cccc(/C=N/c2ccc(OC)cc2)c1O` [Compound 11], the Hill slope was 1.02.

These data come from PMC3856094, “Identification of Novel Small Molecules as Inhibitors of Hepatitis C Virus by Structure-Based Virtual Screening” (International Journal of Molecular Sciences, 2013).
